Results deposited as PubChem BioAssay AID504761 (Drosophila RNAi Screening Center, 2011).
The screen tested about 22,000 reagents; this is a random part of those that have a named target and a result. In the full data, 116 (0.52%) are marked active. 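Calls depend on retest data that are not deposited; infection was ranked per plate without normalising between plates; the unit of the infection score is not given.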 The raw values are shown without normalisation. No sequences are given here. Not given: the amount of reagent, the time to read-out.

Aim: 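Genome-wide fly cell screen for genes dengue virus requires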 (primary screen)
System: D.Mel-2 cells from Drosophila
Reagents: long dsRNA against Drosophila genes
Challenge: infection with dengue virus type 2; dose and infection time not stated
Read-out: 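Per well on two replicate plates, imaging gave the percent of cells positive for viral envelope protein, ranked by infection, and a nuclear count of cells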
Scale: infection score: higher = more virus-infected cells; cell count: higher = more cells in the well
Rule for the call: 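Very low infection ranking in both replicate wells (chance probability at most 0.065), then a retest showing infection dropped 1.5-fold or more at p below 0.05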
Calls: active = confirmed: knock-down lowers infection; inactive = not picked or not confirmed

no.	gene knocked down	amplicon	infection score, replicate 1	infection score, replicate 2	cell count, replicate 1	cell count, replicate 2	Call
1	CG32099 (GeneID 317852)	DRSC21352	0.99		5663	387	inactive
2	TotE (GeneID 35275)	DRSC21355	5.76	5.07	5681	5250	inactive
3	Gr5a (GeneID 44873)	DRSC18085	4.25	4.39	6464	6625	inactive
4	RpS10b (GeneID 32953)	DRSC19561	19	11.7	5028	5253	inactive
5	CG15564 (GeneID 43696)	DRSC15102	0.55	0.62	6727	6611	active
6	CG10934 (GeneID 37013)	DRSC06017	9.25	22.7	5264	4372	inactive
7	Vang (GeneID 35922)	DRSC07570	7.35	7.98	6697	5900	inactive
8	clu (GeneID 36793)	DRSC07181	5.3	7.05	5961	5744	inactive
9	clu (GeneID 36793)	DRSC29278	20.2	12.2	3353	5633	inactive
10	Rep (GeneID 37246)	DRSC07526	12.6	0.24	3918	411	inactive
11	Slmap (GeneID 3355127)	DRSC03799	10.3	7.22	7263	6326	inactive
12	Prosalpha6T (GeneID 34726)	DRSC02873	6.16	3.31	6558	6526	inactive
13	Kr (GeneID 38012)	DRSC04622	7.83	15.3	6196	6149	inactive
14	CG5126 (GeneID 33306)	DRSC00680	1.13	0.79	6182	6331	inactive
15	CG9547 (GeneID 33911)	DRSC03260	1.65	4.09	5864	6411	inactive
16	CG9547 (GeneID 33911)	DRSC27269	3.18	6.63	6351	6232	inactive
17	U3-55K (GeneID 3346176)	DRSC05982	26.1	15.5	4908	4984	inactive
18	U3-55K (GeneID 3346176)	DRSC29090	22.9	18.5	4509	5903	inactive
19	Or65a (GeneID 318011)	DRSC08808	2.2	0.81	6228	5526	inactive
20	Rad9 (GeneID 40054)	DRSC11263	12.6	5.7	5063	6594	inactive
21	CG17549 (GeneID 35212)	DRSC02625	15.9	13	6320	6225	inactive
22	Cfp1 (GeneID 31880)	DRSC18128	28.2	21.5	5401	3270	inactive
23	ninaG (GeneID 41369)	DRSC16102	4.21	9.37	6372	6979	inactive
24	dwg (GeneID 31265)	DRSC18766	9.85	2.34	1228	6590	inactive
25	dwg (GeneID 31265)	DRSC29174	16.2	15	4986	5916	inactive
26	RpL18A (GeneID 36985)	DRSC07538	6.46	2.18	1114	733	inactive
27	Blimp-1 (GeneID 38638)	DRSC10496	3.06	3.82	5558	5547	inactive
28	Blimp-1 (GeneID 38638)	DRSC24305	0.86	0.53	6165	6228	inactive
29	CG9427 (GeneID 41164)	DRSC16490	4.79	7.95	7009	6632	inactive
30	CG9427 (GeneID 41164)	DRSC28856		3.25	372	1445	inactive
31	CG31287 (GeneID 318663)	DRSC13138	2.25	0.36	5903	6119	inactive
32	CG14693 (GeneID 41299)	DRSC14916	8.39	2.43	5935	6214	inactive
33	Bulli (GeneID 38734)	DRSC10974	1.16	3.11	5838	5815	inactive
34	CG32170 (GeneID 317894)	DRSC09452	0.56	0.71	6074	5777	inactive
35	Nnf1a (GeneID 37325)	DRSC06394	1.12	2.03	6052	6058	inactive
36	spag4 (GeneID 34581)	DRSC02973	5.34	2.77	6345	6181	inactive
37	Srlp (GeneID 41533)	DRSC15890	10.9	17.7	1854	1961	inactive
38	pigeon (GeneID 35200)	DRSC03565	10.9	5.92	6255	6518	inactive
39	Cpr92F (GeneID 42450)	DRSC15819	7.78	15.3	2532	6361	inactive
40	disp (GeneID 44274)	DRSC12376	3.76	13.1	6540	5609	inactive
41	CG7685 (GeneID 42220)	DRSC16285	4.95	5.92	6625	6657	inactive
42	CG7685 (GeneID 42220)	DRSC27560	17.6	16.9	6454	6088	inactive
43	CG15343 (GeneID 31765)	DRSC18028	10	6.95	6187	6430	inactive
44	CG10680 (GeneID 35282)	DRSC02093	11.2	2.07	5809	6467	inactive
45	Ilp3 (GeneID 39151)	DRSC10168	4.92	3.18	6202	6602	inactive
46	CG13872 (GeneID 37273)	DRSC06431	0.75	1.96	5628	5779	inactive
47	fs(1)N (GeneID 45973)	DRSC18578	4.72	4.54	6061	5787	inactive
48	tgo (GeneID 41084)	DRSC17077	2.71	3.55	5687	5668	inactive
49	tgo (GeneID 41084)	DRSC29930		2.46	300	6675	inactive
50	Prosalpha5 (GeneID 36951)	DRSC07514	4.9	2.46	1103	1015	inactive
51	CG9010 (GeneID 36904)	DRSC07320	6.68	6.85	6582	6366	inactive
52	CG13227 (GeneID 36179)	DRSC06347	3.76	18.3	6886	6929	inactive
53	CG13227 (GeneID 36179)	DRSC27529	11	10.8	6345	7049	inactive
54	dx (GeneID 31589)	DRSC18767	0.58	1.02	6187	6693	inactive
55	dx (GeneID 31589)	DRSC24880	4.38	2.71	6800	6678	inactive
56	CG5611 (GeneID 43318)	DRSC15843	1.58	7.99	6947	5196	inactive
57	GatB (GeneID 42861)	DRSC15807	4.33	8.52	6325	6081	inactive
58	GatB (GeneID 42861)	DRSC27887	3.19	3.22	6491	6327	inactive
59	CG33217 (GeneID 2768951)	DRSC22907	0.55	18.3	7033	5324	inactive
60	CG33217 (GeneID 2768951)	DRSC28139	9.63	4.27	5679	5757	inactive
61	Marcal1 (GeneID 33709)	DRSC02718	5.54	7.43	5723	6241	inactive
62	Tcs3 (GeneID 39811)	DRSC10461	1.62	2.42	5812	5921	inactive
63	Tcs3 (GeneID 39811)	DRSC29969	6.09	4.67	6090	5869	inactive
64	CG7376 (GeneID 38715)	DRSC10829	9.02	17.1	6100	5615	inactive
65	CG42514 (GeneID 8674108)	DRSC10428	6.68	5.86	6404	6567	inactive
66	toy (GeneID 43833)	DRSC17222	3.5	8.32	6401	6549	inactive
67	toy (GeneID 43833)	DRSC25870	4.2	7.03	6255	6046	inactive
68	CG31431 (GeneID 326138)	DRSC14589	1.22	3.97	6739	6203	inactive
69	rin (GeneID 47998)	DRSC22997	2.32	17.5	4145	4270	inactive
70	CG12520 (GeneID 39466)	DRSC09892	0.47	1.42	6170	5768	inactive
71	Dredd (GeneID 31011)	DRSC18461	3.13	7.89	6903	6880	inactive
72	D2hgdh (GeneID 31184)	DRSC18577	7.68	8.16	6305	662	inactive
73	D2hgdh (GeneID 31184)	DRSC25824	2.4	9.79	6744	4844	inactive
74	Etl1 (GeneID 34311)	DRSC02911	13.8	8.19	6160	5632	inactive

Just “infection score, replicate 1”, for 10 of the entries above:
CG32170 (GeneID 317894) [DRSC09452] = 0.56
Nnf1a (GeneID 37325) [DRSC06394] = 1.12
spag4 (GeneID 34581) [DRSC02973] = 5.34
Srlp (GeneID 41533) [DRSC15890] = 10.9
pigeon (GeneID 35200) [DRSC03565] = 10.9
Cpr92F (GeneID 42450) [DRSC15819] = 7.78
disp (GeneID 44274) [DRSC12376] = 3.76
CG7685 (GeneID 42220) [DRSC16285] = 4.95
CG7685 (GeneID 42220) [DRSC27560] = 17.6
CG15343 (GeneID 31765) [DRSC18028] = 10
